Compound potency records, mixed from different reports. Data source: NIAID ChemDB in PubChem.

Shared fields: whole-cell or culture tests; organism: HIV-1; cells: MT-4; endpoint: EC50

ECn: concentration that inhibits the pathogen or its effect by n%. Two numbers with a dash give a range or band. Conditions beyond the fields shown may differ between rows. Blank or dashed fields: not listed here.

CCCCCCCCCCCC(=O)O[C@@]12C[C@@H](C)[C@]34C=C(C)[C@H](O)[C@@]3(O)[C@H](O)C(COC(=O)OC)=C[C@H](C4=O)[C@@H]1C2(C)C ; read by: cytopathic effect / MTT ; result: 0.025 µg/mL
Cc1cn([C@H]2C[C@H](N=[N+]=[N-])[C@@H](CO)O2)c(=O)[nH]c1=O ; strain: AMD3100RES (subtype B) ; read by: MTT ; result: 0.0005 µg/mL
O=C(CCNC(=O)C(=O)/C=C(\O)c1cccn1Cc1ccc(F)cc1)OC[C@@H]1CC[C@H](n2ccc(=O)[nH]c2=O)O1 ; strain: IIIB ; read by: RT activity ; result: >10 µM
Cc1cn([C@H]2C[C@H](N=[N+]=[N-])[C@@H](COC(=O)c3cccnc3)O2)c(=O)[nH]c1=O ; strain: IIIB Laboratory strain ; read by: cytopathic effect ; result: 0.037 µM
Cc1cn([C@H]2C=C[C@@H](COC(=O)CNC(=O)C(=O)/C=C(\O)c3cccn3Cc3ccc(F)cc3)O2)c(=O)[nH]c1=O ; strain: IIIB ; read by: RT activity ; result: 0.73 µM
CC1(C)C(=O)CC[C@]2(C)C1CC[C@@]13C[C@@H](CCC12)[C@](O)(CO)C3 ; strain: NL4-3 ; read by: luciferase ; result: >20 µM
CC(C)=CCN1c2cc(Cl)cc3[nH]c(=S)n(c23)C[C@@H]1C ; changes: RT-M41L T215Y L100I ; result: <0.2 µM
N#Cc1ccc(Nc2nc(Oc3c(Cl)cc(Cl)cc3Cl)ncc2[N+](=O)[O-])cc1 ; strain: RES056 ; read by: MTT ; result: >25 µM
Cc1cn([C@H]2C[C@H](N=[N+]=[N-])[C@@H](CO)O2)c(=O)[nH]c1=O ; strain: IIIB ; read by: MTT ; result: 0.0151 µM
O=C(O)C(=O)CC(=O)c1cc(OCc2ccccc2)cc(OCc2ccccc2)c1 ; strain: IIIB ; read by: RT activity ; result: >10 µM
CCc1cc(NCc2nc3ccccc3o2)c(=O)[nH]c1C ; strain: IIIB ; read by: p24 / ELISA ; result: <0.2 µM
N#Cc1ccc(Nc2nc(Oc3c(Cl)cccc3Cl)ncc2[N+](=O)[O-])cc1 ; strain: RES056 ; read by: MTT ; result: >206 µM
C=C1[C@H](CO)[C@@H](O)C[C@@H]1n1cnc2c(=O)[nH]c(N)nc21 ; strain: RES056 ; changes: K103N + Y181C ; read by: MTT ; result: 0.034 µM
Cc1cn([C@H]2C[C@H](N=[N+]=[N-])[C@@H](CO)O2)c(=O)[nH]c1=O ; strain: NL4-3 ; read by: luciferase ; result: 0.0043 µM
Cc1cc(C)c(Oc2ncc([N+](=O)[O-])c(Nc3ccc(C#N)cc3)n2)c(C)c1 ; strain: IIIB ; read by: MTT ; result: 0.042 µM
N#Cc1ccc(Nc2nc(Cc3c(Cl)cccc3Cl)nc(NOCC(=O)N3CCOCC3)n2)cc1 ; read by: cytopathic effect / MTT ; result: 0.01585 µM
O=C(CNC(=O)C(=O)/C=C(\O)c1cccn1Cc1ccc(F)cc1)OC[C@@H]1CC[C@H](n2ccc(=O)[nH]c2=O)O1 ; strain: IIIB ; read by: RT activity ; result: >10 µM
Nc1ccn([C@H]2CC[C@@H](CO)O2)c(=O)n1 ; strain: Clinical isolate ; changes: AZT-resistant (RT I50V D67N K70R I135V T215Y) ; conditions: clinical isolate ; result: 0.65 µM
CC(C)CN(C[C@@H](O)[C@H](Cc1ccccc1)NC(=O)[C@@H](NC(=O)CNCc1cccc(F)c1)C(C)(C)C)S(=O)(=O)c1cccc(N)c1 ; strain: HXB2 ; read by: p24 ; result: <0.0053 µM
Cc1cn([C@H]2C[C@H](N=[N+]=[N-])[C@@H](CO)O2)c(=O)[nH]c1=O ; strain: IIIB ; read by: cytopathic effect / MTT ; result: 0.0014 µM
Cc1cn([C@H]2C=C[C@@H](COC(=O)CNC(=O)C(=O)/C=C(\O)c3cc(OCc4ccccc4)cc(OCc4ccccc4)c3)O2)c(=O)[nH]c1=O ; strain: IIIB ; read by: RT activity ; result: 1.8 µM
Nc1ccn([C@@H]2CO[C@H](CO)S2)c(=O)n1 ; strain: RF ; read by: cytopathic effect / MTT ; result: 28 µM
CC1=C[C@]23C(=O)[C@@H](C=C(COC(=O)C(C)(C)C)[C@@H](O)[C@]2(O)[C@H]1OC(=O)C(C)(C)C)[C@H]1[C@@H](C[C@H]3C)C1(C)C ; read by: cytopathic effect / MTT ; result: 0.0033 µg/mL
Cc1cn([C@H]2C[C@H](N=[N+]=[N-])[C@@H](CO)O2)c(=O)[nH]c1=O ; changes: Indinavir- ritonavir-resistant PR V82F/I84V ; result: 0.002 µM
Cc1cn([C@H]2C[C@H](N=[N+]=[N-])[C@@H](CO)O2)c(=O)[nH]c1=O ; strain: IIIB ; read by: p24 / ELISA ; result: <0.025 µM
Cc1cc(C#N)cc(C)c1Oc1ncc(NC(=O)C(F)(F)F)c(Nc2ccc(C#N)cc2)n1 ; strain: IIIB ; read by: MTT ; result: 0.037 µM
O=C(O)CCC(=O)O ; strain: IIIB ; read by: cytopathic effect / MTT ; result: >25 µM
CC(C)(C)NC(=O)[C@@H]1CN(Cc2cnc3occc3c2)CCN1C[C@@H](O)C[C@@H](Cc1ccccc1)C(=O)N[C@H]1c2ccccc2C[C@H]1O ; read by: p24 ; result: <0.025 µM
CCCCCCCCCCCC(=O)O[C@@]12C[C@@H](C)[C@]34C=C(C)[C@H](O)[C@@]3(O)[C@H](O)C(COCc3ccccc3)=C[C@H](C4=O)[C@@H]1C2(C)C ; read by: cytopathic effect / MTT ; result: 0.03 µg/mL
c1cc(CN2CCCNCCNCCCNCC2)ccc1CN1CCCNCCNCCCNCC1 ; strain: UG92029 (subtype A) ; read by: MTT ; result: 0.008 µg/mL
Cc1cn([C@H]2C[C@H](N=[N+]=[N-])[C@@H](CO)O2)c(=O)[nH]c1=O ; strain: HE ; read by: cytopathic effect / MTS ; result: 0.0011 µM
CC(C)[C@H](NC(=O)OCc1ccccc1)C(=O)N[C@@H](Cc1ccccc1)[C@H](O)[C@@H](O)[C@H](Cc1ccccc1)NC(=O)[C@@H](NC(=O)OCc1ccccc1)C(C)C ; strain: IIIB ; read by: cytopathic effect / MTT ; result: 0.02–0.4 µM
Cc1cn([C@H]2C[C@H](N=[N+]=[N-])[C@@H](CO)O2)c(=O)[nH]c1=O ; strain: IIIB ; read by: cytopathic effect / MTT ; result: 0.0053 µM
C1CNCCNCCCN(CCCN2CCCNCCNCCCNCC2)CCNC1 ; strain: RF ; read by: cytopathic effect / MTS ; result: 0.497 µM
CCCCCCCCCCCC(=O)O[C@@]12C[C@@H](C)[C@]34C=C(C)[C@H](OC(=O)c5ccccc5)[C@@]3(O)[C@H](O)C(CO)=C[C@H](C4=O)[C@@H]1C2(C)C ; read by: cytopathic effect / MTT ; result: 0.00021 µg/mL
Cc1cn([C@H]2C[C@H](N=[N+]=[N-])[C@@H](CO)O2)c(=O)[nH]c1=O ; strain: IIIB ; result: <0.013 µM
CC(C)[C@H](NC(=O)OCc1ccccc1)C(=O)N[C@@H](Cc1ccccc1)[C@H](O)[C@H](O)[C@H](Cc1ccccc1)NC(=O)[C@@H](NC(=O)OCc1ccccc1)C(C)C ; strain: IIIB ; read by: cytopathic effect / MTT ; result: 0.02–0.4 µM
Cc1cc(C=O)cc(C)c1Oc1ncc(NC(=O)C(F)(F)F)c(Nc2ccc(C#N)cc2)n1 ; strain: IIIB ; read by: MTT ; result: 0.48 µM
Cc1cn(Cc2nc(C)n(C)n2)c(=O)[nH]c1=O ; strain: IIIB ; result: >82 µg/mL
CCc1cc(NCc2nc3c(C)ccc(C)c3o2)c(=O)[nH]c1C ; strain: IIIB ; read by: p24 / ELISA ; result: <0.05 µM
Cc1cn([C@H]2C[C@H](N=[N+]=[N-])[C@@H](CO)O2)c(=O)[nH]c1=O ; strain: IIIB ; read by: MTT ; result: 0.007 µM

The first 6 rows once more:

smiles	strain	changes	read by	conditions	result
CCCCCCCCCCCC(=O)O[C@@]12C[C@@H](C)[C@]34C=C(C)[C@H](O)[C@@]3(O)[C@H](O)C(COC(=O)OC)=C[C@H](C4=O)[C@@H]1C2(C)C	-	-	cytopathic effect / MTT	-	0.025 µg/mL
Cc1cn([C@H]2C[C@H](N=[N+]=[N-])[C@@H](CO)O2)c(=O)[nH]c1=O	AMD3100RES (subtype B)	-	MTT	-	0.0005 µg/mL
O=C(CCNC(=O)C(=O)/C=C(\O)c1cccn1Cc1ccc(F)cc1)OC[C@@H]1CC[C@H](n2ccc(=O)[nH]c2=O)O1	IIIB	-	RT activity	-	>10 µM
Cc1cn([C@H]2C[C@H](N=[N+]=[N-])[C@@H](COC(=O)c3cccnc3)O2)c(=O)[nH]c1=O	IIIB Laboratory strain	-	cytopathic effect	-	0.037 µM
Cc1cn([C@H]2C=C[C@@H](COC(=O)CNC(=O)C(=O)/C=C(\O)c3cccn3Cc3ccc(F)cc3)O2)c(=O)[nH]c1=O	IIIB	-	RT activity	-	0.73 µM
CC1(C)C(=O)CC[C@]2(C)C1CC[C@@]13C[C@@H](CCC12)[C@](O)(CO)C3	NL4-3	-	luciferase	-	>20 µM